These results are taken from patent EP3464307B1, “BISPHOSPHONATE QUINOLONE CONJUGATES AND USES THEREOF” (dated 2026).

Data set [1] concerns Aggregatibacter actinomycetemcomitans (Aa; wild-type rough strain D7S-1; serotype a). Put plainly: MIC assay against planktonic Aa. Conditions: Example 1.
Data set [2] relates to biofilms of Aggregatibacter actinomycetemcomitans (Aa; wild-type rough strain D7S-1; serotype a). Put plainly: Jawbone peri-implant osteomyelitis animal model, first experiment. Conditions: for activity compared to ciprofloxacin alone in multiple doses: conjugate 10 mg/kg single dose versus ciprofloxacin 30 mg/kg total.
Data set [3] relates to biofilms of S. aureus strain ATCC-6538. Put plainly: Susceptibility testing against preformed biofilms on HA discs. To be noted: all tested concentrations versus control, Kruskal-Wallis test.
Data set [4] deals with biofilms of Aggregatibacter actinomycetemcomitans strain D7S-5. Put plainly: Susceptibility testing against biofilms grown on HA. To be noted: result in words.
Data set [5] has as its system biofilms of Aggregatibacter actinomycetemcomitans (Aa; wild-type rough strain D7S-1; serotype a). Put plainly: Jawbone peri-implant osteomyelitis animal model, second animal experiment.
The test system of data set [6] is biofilms of P. aeruginosa strain ATCC-15442. The data set can be described thus: Susceptibility testing against preformed biofilms on polystyrene. Conditions: polystyrene substrate.
The subject of data set [7] is biofilms of S. aureus strain ATCC-6538. The data set is described as above. To be noted: polystyrene substrate.
For data set [8], the system named is S. aureus strain ATCC-6538. The data set can be described thus: Time-kill assay (CLSI). Conditions: planktonic.
The test system of the next data set is MRSA strain MR4-CIPS. The data set can be described thus: Time-kill assay (CLSI). To be noted: planktonic.
The test system of another data set is S. aureus ATCC6538. The data set can be described thus: Survival of biofilm bacteria after 24 hrs on pretreated, rinsed HA discs. Conditions: even at very high concentrations.

Values after ≈ are worked out from the molar mass of the structure shown.

Consider `O=C(O)c1cn(C2CC2)c2cc(N3CCNCC3)c(F)cc2c1=O`, for which the “MIC^90” value in data set [1] turned out to be 2 µg/mL (≈ 6.04 µM). Also, the “log reduction in bacterial count (CFU per gram of tissue)” value in [2] (ciprofloxacin 10 mg/kg 3x/week (30 mg/kg total), intraperitoneal) is recorded as 1 log. Moreover, the “bactericidal activity and reduction of CFUs against established biofilms on HA” value in data set [3] is “statistically significant bactericidal activity”.

In the case of `O=C(O)c1cn(C2CC2)c2cc(N3CCN(C(=O)Oc4ccc(CC(P(=O)(O)O)P(=O)(O)O)cc4)CC3)c(F)cc2c1=O`, the recoverable bacteria entry in data set [2] (conjugate 0.3 mg/kg x3 (0.9 mg/kg total), intraperitoneal) is “no recoverable bacteria”. Also, the “activity compared to ciprofloxacin alone in multiple doses” value in data set [2] is “nearly an order of magnitude greater activity”; in data set [2] (listed as BCC (6)), “approximately as effective as ciprofloxacin”; in data set [2] (listed as BCC (compound 6)), “an order of magnitude greater activity”. For the same molecule, the “greater bactericidal activity than the multiple dosing regimen of ciprofloxacin” value in data set [2] (conjugate 10 mg/kg single dose versus ciprofloxacin multiple doses) came to 1 log. Moreover, the “log reduction in bacterial count (CFU per gram of tissue)” value in [2] (conjugate 10 mg/kg single dose, intraperitoneal, versus negative control, one week after pharmacotherapy) is 2 log. The “tolerability, adverse events” value in data set [2] (intraperitoneal dosing, study period) is listed as “no potential systemic toxicity or adverse effects”. Moreover, the “antimicrobial activity against Aa biofilms grown on HA” value in data set [4] is listed as “effective antimicrobial activity”. For the same molecule, the “log units of kill (CFU of Aa from resected peri-implant tissue)” value in data set [5] (10 mg/kg single dose, intraperitoneal) was “approximately 6 log units”. Moreover, in data set [5] (multiple low dose 0.3 mg/kg 3x/week, p>0.05), the “significance of CFU reduction versus control” value is on record as “not for the multiple low dose group”. Further, the “efficacy for reducing mean CFU/gram of tissue versus control” value in data set [5] (single high dose 10 mg/kg, unpaired t-test p=0.0005, listed as BCC (6), 10 mg/kg) was “greatest efficacy”. For the same molecule, the MBIC90 entry in data set [6] and in data set [7] was “no MBIC90 was observed” in each case. Also, the “bactericidal activity and reduction of CFUs against established biofilms on HA” value in [3] (listed as BP-ciprofloxacin) and in data set [3] (listed as conjugate) was “statistically significant bactericidal activity” in each case. Besides, the “time to bactericidal activity / evident prevention of bacterial growth at half the MIC” value in data set [8] (1/2x MIC, listed as conjugate) was ≤ 1 h; with MRSA strain MR4-CIPS (1/2x MIC, listed as conjugate) it was ≤ 1 h. Moreover, the “time to bactericidal activity at the established MIC” value (in data set [8] (1x MIC); with MRSA strain MR4-CIPS (1x MIC)) was ≤ 1 h in each case.

As to `O=C(O)c1cn(C2CC2)c2cc(N3CCN(C(=O)c4ccc(CC(P(=O)(O)O)P(=O)(O)O)cc4)CC3)c(F)cc2c1=O`, the entries for the “inhibition of biofilm growth on pretreated HA” value in the data set with S. aureus ATCC6538 and in the data set on S. aureus ATCC6538 (listed as BAC (11)) were “no significant antimicrobial activity” and “did not inhibit the growth of biofilms”, respectively.
